From US20060051359A1

Target: 8H9 antigen (human) (UniProt Q5ZPR3)
Experiment: cell-based or functional assay

## 8H9(dsFv)-PE38
  IC50 on the MCF-7 cell line: 0.08 nM
